Assay results from publication PMC10147936, “Dietary factors potentially impacting thiaminase I-mediated thiamine deficiency” (Scientific Reports, 2023).

Legend:
[1] = tested on: Cc1ncc(CO)c(CO)c1O; test: purified protein; conditions: pH 6.5; 37.0 °C
[2] = tested on: O=C(O)c1cccnc1; test: purified protein; conditions: pH 6.5; 37.0 °C

## thiaminase I from C. botulinum (BcmE) (Clostridium botulinum A str. Hall)
[1]
  Km: 14.6 µM
[2]
  Km: 84.2 µM
